For data set [1], the target named is T1, Upc2A DNA-binding domain (Candida glabrata) (UniProt Q6FX18).
T1 sequence: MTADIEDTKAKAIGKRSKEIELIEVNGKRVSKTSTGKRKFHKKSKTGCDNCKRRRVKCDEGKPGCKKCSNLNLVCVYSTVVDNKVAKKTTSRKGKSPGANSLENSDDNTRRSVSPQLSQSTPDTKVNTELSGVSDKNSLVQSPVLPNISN
Description: DNase I footprinting. The note with it: 5' amino-MC6 on reverse strand, recombinant protein, residues 1-150, protein details: 6xHis (pET28a+, Upc2A-6X His), label: 5' 32P on forward strand, probe letters rebuilt from the primers and the genome.

The target of data set [2] is T1, Upc2A DNA-binding domain (Candida glabrata). The data set can be described thus: EMSA. The following applies: recombinant protein, residues 1-150, protein details: 6xHis (pET28a+, Upc2A-6X His), label: 5' biotin on one strand, probe letters rebuilt from the primers and the genome. Background: In EMSA bound probe runs differently from free probe, usually more slowly.

The exact form of at least one protein or probe is not confirmed.

“CAAAGACCCCAGTATTTGTAGACTCATTCCACGGAGCAAAATGTGCTATAAGGATTATTTCTCTGTGCTTCATTTTCTACCTCGTAGATTAGGTTACGTTCAAATTTTAAGTGGCAAAACCATATCCTGATC (double strand) [PDR1 promoter DNase I probe]”: the binding result in data set [1] (protected region, no hypersensitive site) was “binds”.
Regarding “CACGGAATAGGAGGCTCATCGGGACAACTCAGGTGTAGTACTGACGATCAGGATATGGTTTTGCCACTTAAAATTTGAACGTAACCTAATCTACGAGGTAGAAAATGAAGCACAGAGAAATAATCCTTATAGCACATTTTGCTCCGTGGAATGAGTCTACAAATACTGGGGTCTTTG (double strand) [PDR1 promoter EMSA probe wt]”, in data set [2], the binding result is recorded as “binds”.
Consider “CGGTCTGTGCTAATGTAATACACTCTGATCTATGTCCTGGGTTTGCCAACATGTAAACGAAGGCTAATCGTGTTCCGGTAGTCCCGCTGCTCTTCTGTGTGGCAGTGGTACGGTGGAGGTAGAGGTCCCTGCCTTTGATTCTTCCAAACAGAGTTGGGCTACTTTAGGGGTC (double strand) [CDR1 promoter EMSA probe wt]”, for which the binding result in data set [2] was “binds”.
Consider “GAACAAGCCCTGTGCATGTCTGGGTGTTGGTAGCACACGTATACGATCGTATACGTGATAGAGTCGGTGTGCCCATAGAAAGTCTCGGCAATCTGTTACTACATTGGCTTATACATCTACTTACCCGCTGTCGCAAGGGGCTGTCGCAAAGGGCTGTGGCAAAGGAGGACTGATCCCCAGCCTCTTATCCTCTACCCCTCTCTCTTTCTCTCC (double strand) [ERG1 promoter EMSA probe wt]”, for which the binding result in data set [2] (two complexes) was “binds”.
On to “GATTGCCGAGACTTTCTATGGGCACACCGACTCTATCACGTATACGATCGTATACGTGTGCTACCAACACCCAGACATGCACAGGGCTTGTTCTCGTACAGTGTCACCCCCGTTTAGAGACATCTCTGCTGTGCCATCCAGTGTCCGTAAACGACTAGCGACTCTTTGAAGGGACCACAAGGCAAGAGCGAGCTATACGAGC (double strand) [ERG1 promoter DNase I probe]”, for which the binding result in data set [1] (largest protected region, hypersensitive site upstream of SRE) is reported as “binds”.

These data come from article PMC8509923.
